Compound potency records, mixed from different reports. Data source: NIAID ChemDB in PubChem.

Common to all: tests in culture; species: Mycobacterium tuberculosis

Rows are shuffled and stem from different studies. MIC bound comes from a single tested concentration. A number after MIC or MFC names an inhibition level or a share of isolates. An empty or dashed field is not shown. ECn is the concentration giving n% inhibition of infection, replication or growth. Inhibition is in % at the dose shown (toxicity tests: loss of growth or viability).

SMILES	endpoint	cell line	method	dose	mutations	strain or isolate	result
CO[C@H]1/C=C/O[C@@]2(C)Oc3c(C)c(O)c4c(O)c(c(CN5CCN(C)CC5)c(O)c4c3C2=O)NC(=O)/C(C)=C\C=C\[C@H](C)[C@H](O)[C@@H](C)[C@@H](O)[C@@H](C)[C@H](OC(C)=O)[C@@H]1C	MIC					H37Ra	6.25 µM
CCN(CC)CCNc1cc2c(c3c(=O)c4ccccc4sc13)CCCC2	MIC	VERO				H37Rv	12.5 µg/mL
CC1=C(C(=O)Nc2ccccc2F)C(c2cccc(Cl)c2)C(C(=O)Nc2ccccc2F)=C(C)N1	MIC					H37Rv	>6.25 µg/mL
Cc1cc2[nH]c3c(C#N)c4c(c(=O)n3c2cc1C)CCCC4	inhibition		resazurin	6.25 µg/mL		H37Rv	30%
CCOC(=O)c1nc(C2CCCCC2)[nH]c1C1CCCCC1	inhibition			6.25 µg/mL		H37Rv	99%
COc1ccc(C2C(C(=O)Nc3ccc(F)cc3)=C(C)NC(C)=C2C(=O)Nc2ccc(F)cc2)cc1	MIC					H37Rv	>6.25 µg/mL
CC(C)/C=N/NC(=O)c1nc(C2C3CC4CC(C3)CC2C4)[nH]c1C1C2CC3CC(C2)CC1C3	inhibition			6.25 µg/mL		H37Rv	0%
CCCCN1[C@@H](c2ccccc2)CC2(C[C@H]1c1ccccc1)N=c1c(c3c4c5c(C)c(O)c3c(O)c1=NC(=O)/C(C)=C\C=C\[C@H](C)[C@H](O)[C@@H](C)[C@H](O)[C@H](C)[C@H](OC(C)=O)[C@H](C)[C@@H](OC)/C=C/O[C@@](C)(O5)C4=O)N2	MIC					ATCC 35820 (streptomycin-resistant)	0.02 µg/mL
Nc1nnc2nc(CC(=O)c3ccccc3[N+](=O)[O-])c(CC(=O)c3ccccc3[N+](=O)[O-])nn12	MIC bound		BACTEC			H37Rv	>12.5 µg/mL
CCCCCNC(=O)CCc1cnc(C2C3CC4CC(C3)CC2C4)[nH]1	MIC					H37Rv	>6.25 µg/mL
CSCCC(=O)OCC(S)CS	MIC					H37Rv	25 µg/mL
[O-]c1ccccc1CNCCCCCCNCCCCCCCCNCCCCCCNCc1ccccc1[O-]	MIC					H37Ra	6.25 µM
Cc1ccc(S(=O)(=O)NN=C2C3CC=CCC3C(=NNS(=O)(=O)c3ccc(C)cc3)C3CC=CCC23)cc1	MIC bound		BACTEC			H37Rv	>12.5 µg/mL
C[C@@H](O)[C@H]1C(=O)N2C(C(=O)O)=C(SCCN=CN)C[C@H]12	EC50		BACTEC			9 strains	<100 µg/mL
Cc1c(N)nc([C@H](CC(N)=O)NC[C@H](N)C(N)=O)nc1C(=O)N[C@H](C(=O)N[C@H](C)[C@@H](O)[C@H](C)C(=O)N[C@H](C(=O)NCCc1nc(-c2nc(C(=O)NCCC[S+](C)C)cs2)cs1)[C@@H](C)O)C(O[C@@H]1O[C@@H](CO)[C@@H](O)[C@H](O)[C@@H]1O[C@H]1O[C@H](CO)[C@@H](O)[C@H](OC(N)=O)[C@@H]1O)c1cnc[nH]1	MIC					H37Ra	1.56 µM
CC1(C)CCC[C@@]2(C)C1C[C@H](O)[C@]1(C)C2CCC2[C@@]3(C)CC[C@H](C(C)(C)O)C3CC[C@]21C	MIC					H37Rv	>128 µM
CC(=O)Nc1ccc(C(=O)O)c([N+](=O)[O-])c1	inhibition		BACTEC	12.5 µg/mL		H37Rv	0%
CCCCCCCNC(=O)CCc1cnc(C2C3CC4CC(C3)CC2C4)[nH]1	inhibition			6.25 µg/mL		H37Rv	8%
CN(C)c1ccc2nc3ccc(=[N+](C)C)cc-3oc2c1.[Cl-]	inhibition		BACTEC	12.5 µg/mL		H37Rv	74%
CC(=O)OCC(CSCC(C)SC(C)=O)SC(C)=O	MIC					H37Rv	6.25 µg/mL
CN[C@@H]1[C@H](O[C@H]2[C@H](O[C@H]3[C@H](O)[C@@H](O)[C@H](N=C(N)N)[C@@H](O)[C@@H]3N=C(N)N)O[C@@H](C)[C@]2(O)C=O)O[C@@H](CO)[C@H](O)[C@H]1O	MIC90		resazurin / fluorescence			H37Rv	0.12 µg/mL
COc1ccc(/C(C#N)=C2C=C/C(=N\O)C(C)=C\2Cl)cc1	MIC bound		BACTEC			H37Rv	>12.5 µg/mL
COc1ccc([C@@H]2CC3(C[C@H](c4ccc(OC)cc4)N2)N=c2c(c4c5c6c(C)c(O)c4c(O)c2=NC(=O)/C(C)=C\C=C\[C@H](C)[C@H](O)[C@@H](C)[C@H](O)[C@H](C)[C@H](OC(C)=O)[C@H](C)[C@@H](OC)/C=C/O[C@@](C)(O6)C5=O)N3)cc1	MIC					ATCC 35822 (isoniazid-resistant)	0.02 µg/mL
CO[C@H]1/C=C/O[C@@]2(C)Oc3c(C)c(O)c4c(O)c(c5c(c4c3C2=O)NC2(CCN(CC(C)C)CC2)N=5)=NC(=O)/C(C)=C\C=C\[C@H](C)[C@H](O)[C@@H](C)[C@@H](O)[C@@H](C)[C@H](OC(C)=O)[C@@H]1C	MIC40					32 clinical isolates	1.56 µg/mL
Cc1ccc2[nH]c3c(c2c1)[n+]([O-])c1ccccc1[n+]3[O-]	MIC bound		resazurin			H37Rv	<6.25 µg/mL
C=C1C(=O)O[C@@H]2/C=C(\C)CC[C@H]3OC3(C)CC[C@@H]12	MIC					H37Rv	64 µg/mL
CCN(CCO)CCNc1ccc(C)c2sc3ccccc3c(=O)c12	MIC	VERO	BACTEC			H37Rv	6.25 µg/mL
NNC(=O)CCc1cnc(C2CCCC2)[nH]1	MIC					H37Rv	>6.25 µg/mL
CO[C@H]1/C=C/O[C@@]2(C)Oc3c(C)c(O)c4c(O)c(c5c(c4c3C2=O)NC2(C[C@@H](c3ccc(F)cc3)N[C@@H](c3ccc(F)cc3)C2)N=5)=NC(=O)/C(C)=C\C=C\[C@H](C)[C@H](O)[C@@H](C)[C@H](O)[C@H](C)[C@H](OC(C)=O)[C@@H]1C	MIC					ATCC 35820 (streptomycin-resistant)	0.02 µg/mL
CC(=O)O[C@@H]1CC(=O)O[C@H](C)C[C@@H]2O[C@@H]2/C=C/C(=O)[C@H](C)C[C@H](CC=O)[C@H](OC2OC(C)C(OC3CC(C)(O)C(OC(=O)CC(C)C)C(C)O3)C(N(C)C)C2O)[C@H]1O	MIC					H37Ra	12.5 µM
Cc1cc(NC(=O)c2ccc(N)cc2)ccc1N=Nc1ccc(N=Nc2cc(S(=O)(=O)[O-])cc3cc(S(=O)(=O)[O-])cc(O)c23)c2ccccc12.[Na+].[Na+]	MIC		BACTEC			H37Rv	32 µg/mL
COc1ccccc1NC(=O)C1=C(C)NC(C)=C(C(=O)Nc2ccccc2OC)C1c1ccc(N(C)C)cc1	MIC					H37Rv	<12.5 µg/mL
O=C(NNC1CCN(Cc2ccccc2)CC1)c1ccccc1	MIC bound		BACTEC			H37Rv	>12.5 µg/mL
CC(C)(C)c1nc(C(=O)O)c(C(C)(C)C)[nH]1	MIC					H37Rv	>6.25 µg/mL
O=C1NC(=O)C(=Nc2cccc3c(=O)[nH][nH]c(=O)c23)C(c2nc3ccccc3s2)C1=O	inhibition		BACTEC	0.5 µM			0%
COc1cc(C2C(C(=O)Nc3ccccc3F)=C(C)NC(C)=C2C(=O)Nc2ccccc2F)cc(OC)c1OC	MIC					H37Rv	>6.25 µg/mL
C=C1C(=O)OC2C/C(C)=C/CC/C(C)=C/[C@H](O)[C@H]12	MIC					H37Rv	16 µg/mL
O=C(COc1ccc(Cl)cc1)SCC1CS1	MIC					H37Rv	>50 µg/mL
CO/N=C(\C(=O)N[C@@H]1C(=O)N2C(C(=O)O)=C(CSc3nnnn3CCNS(=O)(=O)O)CS[C@H]12)c1csc(N)n1	EC50		BACTEC			8 strains	>100 µg/mL
OC(c1cc(C23CC4CC(CC(C4)C2)C3)nc2c(Cl)cc(Cl)cc12)C1CCCCN1	MIC					H37Ra	6.25 µM
CCCCn1c(O)c(/C=C2\C=Nc3ccccc32)sc1=O	inhibition		BACTEC	12.5 µg/mL		H37Rv	29%
O=C(O)c1cn(-c2ccc(F)cc2)c2cc(N3CCNCC3)c(F)cc2c1=O	EC50		BACTEC			12 strains	<100 µg/mL
CCCc1c2c([nH]c(=O)c1C)C(=O)c1[nH]c(=O)c(C)c(CCC)c1C2=O	MIC90		resazurin / fluorescence		Kanamycin-resistant	H37Rv	0.06 µg/mL
O=C(SCC1CS1)c1ccco1	MIC					H37Rv	0.39 µg/mL
C[C@@H]1CC[C@]2(C(=O)O)CC[C@]3(C)C(=CC[C@@H]4[C@@]5(C)CC[C@H](O)C(C)(C)[C@@H]5CC[C@]43C)[C@@H]2[C@]1(C)O	MIC					H37Rv	64 µM
NNC(=O)CCc1cnc(C2C3CC4CC(C3)CC2C4)[nH]1	inhibition			6.25 µg/mL		H37Rv	14%
COc1ccc(C2C(C(=O)Nc3ccccc3F)=C(C)NC(C)=C2C(=O)Nc2ccccc2F)cc1OC	MIC					H37Rv	>6.25 µg/mL
C=C1CC[C@@H](O)[C@]2(C)CC[C@H]3C(=C)C(=O)O[C@@H]3[C@@H]12	MIC					H37Rv	64 µg/mL
CC[C@H]1OC(=O)[C@H](C)[C@@H](O[C@H]2C[C@@](C)(OC)[C@@H](O)[C@H](C)O2)[C@H](C)[C@@H](O[C@@H]2O[C@H](C)C[C@H](N(C)C)[C@H]2O)[C@](C)(OC)C[C@@H](C)C(=O)[C@H](C)[C@@H](O)[C@]1(C)O	MIC90					30 isolates/HIV+	8 µg/mL
S=C(S)N1CCCC1	MIC					H37Ra	0.781 µM
CC1=C(C(=O)Nc2ccc(F)c(Cl)c2)C(c2c3ccccc3cc3ccccc23)C(C(=O)Nc2ccc(F)c(Cl)c2)=C(C)N1	MIC					H37Rv	>6.25 µg/mL
NNC(=O)c1cnc(C2CCCCC2)[nH]1	MIC					H37Rv	>6.25 µg/mL
C=C1C(=O)C23CC1CCC2C12CO[C@H](O)[C@H]1C(C)(C)[C@H](OC(C)=O)C[C@H]2OC3=O	inhibition		BACTEC	12.5 µg/mL		H37Rv	12%
CC(=O)O[C@@H]1CC[C@]23C[C@]24CC[C@]2(C)[C@@H]([C@H](C)CC[C@H]5OC5(C)C)CC[C@@]2(C)[C@@H]4CC[C@H]3C1(C)C	MIC					H37Rv	>128 µg/mL
NCC[C@H](O)C(=O)N[C@@H]1C[C@H](N)[C@@H](O[C@H]2O[C@H](CN)[C@@H](O)[C@H](O)[C@H]2O)[C@H](O)[C@H]1O[C@H]1O[C@H](CO)[C@@H](O)[C@H](N)[C@H]1O	MIC90					30 isolates/HIV+	>64 µg/mL
O=C1C(=Cc2ccc(F)cc2)C(=O)c2ccccc21	inhibition		BACTEC	12.5 µg/mL		H37Rv	14%
C/C(=C\Cc1ccccc1O)CCC[C@H](C)CCC[C@H](C)CCCC(C)C	MIC					H37Rv	32 µg/mL
Cc1c(C(=O)/C=C/c2ccccc2[N+](=O)[O-])[n+](=O)c2ccccc2n1[O-]	MIC bound		BACTEC			H37Rv	≤12.5 µg/mL
CO/N=C(\C(=O)N[C@@H]1C(=O)N2C(C(=O)O)=CCS[C@H]12)c1csc(N)n1	inhibition		BACTEC	100 µg/mL		8 strains	100%
CCCCCCCCCCCCCCC(C)O	MIC					H37Rv	8 µg/mL
C[C@]12CC([C@]3(O)CC[C@H]4[C@@H]5C[C@H]6O[C@]67[C@@H](O)C=CC(=O)[C@]7(C)[C@H]5CC[C@@]43C)[C@H](C1)OC(=O)[C@]2(C)O	inhibition		BACTEC	12.5 µg/mL		H37Rv	18%
CO/N=C(/C(=O)N[C@@H]1C(=O)N2C(C(=O)[O-])=C(C[n+]3cccc4c3CCC4)CS[C@H]12)c1csc(N)n1	EC50		BACTEC			8 strains	<100 µg/mL
CCN(CC)CCCC(C)Nc1nccc(/C=C/c2ccc(Cl)cc2)n1	MIC bound		resazurin			H37Rv	>6.25 µg/mL
NC[C@H]1O[C@H](O[C@H]2[C@H](O)[C@@H](O[C@H]3O[C@H](CO)[C@@H](O)[C@H](N)[C@H]3O)[C@H](N)C[C@@H]2N)[C@H](O)[C@@H](O)[C@@H]1O	MIC90		resazurin / fluorescence		Rifampicin-resistant	H37Rv	0.92 µg/mL
CC(=O)OCC(CSC(C)=O)SC(C)=O	MIC					H37Rv	0.8 µg/mL
COC(=O)C1=C(C)N(c2ccccc2)C(C)=C(C(=O)OC)C1c1ccc(SC)cc1	MIC					H37Rv	>6.25 µg/mL
Cc1ccc(S(=O)(=O)Nc2ccc(C(=O)OCC(S)CS)cc2)cc1	MIC					H37Rv	>50 µg/mL
CN(C)CCCN1c2ccccc2Sc2ccc(Cl)cc21	MIC					23587	10 µg/mL
NC(=O)c1cnccn1	MIC					H37Rv	100 µg/mL
O=c1c2ccccc2c2cc3nc4ccc([N+](=O)[O-])cc4c(=O)n3c3cccc1c23	MIC bound		BACTEC			H37Rv	>12.5 µg/mL
OCC(S)CCCCCCCCCS	MIC					H37Rv	>50 µg/mL
CC1=CC(C)=NC2NNC(=O)C12	inhibition		BACTEC	12.5 µg/mL		H37Rv	-8%
CCOC(=O)c1nc(C2CCCC2)[nH]c1C1CCCC1	MIC					H37Rv	>6.25 µg/mL

The first 6 rows once more:

CO[C@H]1/C=C/O[C@@]2(C)Oc3c(C)c(O)c4c(O)c(c(CN5CCN(C)CC5)c(O)c4c3C2=O)NC(=O)/C(C)=C\C=C\[C@H](C)[C@H](O)[C@@H](C)[C@@H](O)[C@@H](C)[C@H](OC(C)=O)[C@@H]1C ; endpoint: MIC ; strain or isolate: H37Ra ; result: 6.25 µM
CCN(CC)CCNc1cc2c(c3c(=O)c4ccccc4sc13)CCCC2 ; endpoint: MIC ; cell line: VERO ; strain or isolate: H37Rv ; result: 12.5 µg/mL
CC1=C(C(=O)Nc2ccccc2F)C(c2cccc(Cl)c2)C(C(=O)Nc2ccccc2F)=C(C)N1 ; endpoint: MIC ; strain or isolate: H37Rv ; result: >6.25 µg/mL
Cc1cc2[nH]c3c(C#N)c4c(c(=O)n3c2cc1C)CCCC4 ; endpoint: inhibition ; method: resazurin ; dose: 6.25 µg/mL ; strain or isolate: H37Rv ; result: 30%
CCOC(=O)c1nc(C2CCCCC2)[nH]c1C1CCCCC1 ; endpoint: inhibition ; dose: 6.25 µg/mL ; strain or isolate: H37Rv ; result: 99%
COc1ccc(C2C(C(=O)Nc3ccc(F)cc3)=C(C)NC(C)=C2C(=O)Nc2ccc(F)cc2)cc1 ; endpoint: MIC ; strain or isolate: H37Rv ; result: >6.25 µg/mL